The source made the active and inactive calls. The rule behind the calls is not given here.
Target: Chaperone protein DnaK (Escherichia coli (strain K12)) (UniProt P0A6Y8)
Assay: binders of DnaK substrate-binding domain, biophysical, NMR, chaperone (AID 1033)
Settings: Purified DnaK SBD, NMR ligand binding

The chains behind the UniProt entries cited, without tags or fusion partners.
UniProt P0A6Y8, whole entry, looked up: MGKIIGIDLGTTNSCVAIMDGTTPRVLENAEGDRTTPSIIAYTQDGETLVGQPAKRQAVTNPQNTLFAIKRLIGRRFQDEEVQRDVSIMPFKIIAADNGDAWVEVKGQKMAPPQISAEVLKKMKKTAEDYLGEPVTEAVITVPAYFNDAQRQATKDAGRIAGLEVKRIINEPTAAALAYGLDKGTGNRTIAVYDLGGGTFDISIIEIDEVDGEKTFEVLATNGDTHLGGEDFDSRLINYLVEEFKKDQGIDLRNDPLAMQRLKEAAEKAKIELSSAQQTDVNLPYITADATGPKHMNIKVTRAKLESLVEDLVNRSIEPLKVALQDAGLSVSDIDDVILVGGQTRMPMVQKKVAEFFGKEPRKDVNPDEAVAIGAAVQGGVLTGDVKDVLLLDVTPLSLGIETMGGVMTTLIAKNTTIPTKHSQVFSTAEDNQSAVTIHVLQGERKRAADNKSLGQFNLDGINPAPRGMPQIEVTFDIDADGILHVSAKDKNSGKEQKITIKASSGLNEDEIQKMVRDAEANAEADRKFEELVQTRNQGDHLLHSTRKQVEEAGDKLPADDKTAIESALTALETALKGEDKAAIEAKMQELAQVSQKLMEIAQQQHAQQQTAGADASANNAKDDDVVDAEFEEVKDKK

Question: `Cc1c2non([O-])c-2c(C)[n+](=O)[n+]1[O-]` was tested. Which Kd did it give?
Answer: inactive: > 4 mM
